A mixed list of measured activities; the numbers were collected in NIAID ChemDB.

All rows: whole-cell or culture tests; species: Candida albicans; measure: MIC

Blank or dashed fields: not listed here.

smiles,strain or isolate,method,result
Cc1ccc(-c2n[nH]c3c2CCCC3)cc1,264/624,,3.9 µg/mL
Cc1nc2c(=O)[nH]nc(C)c2s1,ATCC 10231,broth dilution,≥200 µg/mL
CCCCCC(=O)O[C@H]1[C@H](OC(=O)CCCCC)[C@H](OCC23C4C=C(C(C)C)C2(C(=O)O)C(C=O)(C4)[C@@H]2CC[C@@H](C)[C@H]23)O[C@H](C)[C@H]1OC,1208,,8 µg/mL
Cc1nn(-c2ccc(S(=O)(=O)NC(=O)Nc3ccc(Cl)cc3)cc2)c(=O)c2c(C)noc12,ATCC 10231,broth dilution,100 µg/mL
Clc1ccc(CC(Cn2ccnc2)c2ccccc2Cl)cc1,,,10 µg/mL
CC[C@@H]([C@H](C)O)n1ncn(-c2ccc(N3CCN(c4ccc(OC[C@@H]5CO[C@@](Cn6cncn6)(c6ccc(F)cc6F)C5)cc4)CC3)cc2)c1=O,373,broth dilution,0.25 µg/mL
CCCCCOc1ccc(-c2ccc(-c3ccc(C(=O)N[C@H]4C[C@@H](O)[C@@H](O)NC(=O)[C@@H]5[C@@H](O)[C@@H](C)CN5C(=O)[C@H]([C@H](C)O)NC(=O)[C@H]([C@H](O)[C@@H](O)c5ccc(O)cc5)NC(=O)[C@@H]5C[C@@H](O)CN5C(=O)[C@H]([C@H](C)O)NC4=O)cc3)cc2)cc1,4 isolates,,0.08 µg/mL
NC(=S)c1ccnc(SCc2cccc(Cl)c2)c1,44859,,62.5 µM
CCOC(=O)c1ccc2c(c1)nc(-c1ccc(C(=O)NN(CC)CC)cc1)n2Cc1ccccc1,ATCC 10231,,50 µg/mL
Clc1ccc(CC(Cn2ccnc2)c2ccccc2Cl)c(Cl)c1,,,100 µg/mL
CCOC(=O)c1ccc2c(c1)nc(-c1ccc(C(N)=NCc3ccc(Cl)cc3)cc1)n2Cc1ccccc1,ATCC 10231,,12.5 µg/mL
Cc1n[nH]c(=O)c2c(C)noc12,ATCC 10231,broth dilution,≥200 µg/mL
Cc1c(O)cccc1C(=O)N[C@@H](CSc1ccccc1)[C@H](O)CN1C[C@H]2CCCC[C@H]2C[C@H]1C(=O)NC(C)(C)C,I21B,,64 µg/mL
CC(C)CCC[C@@H](C)[C@H]1CC[C@H]2C3/C(=N/N)CC4=C/C(=N/N)CC[C@]4(C)C3CC[C@]12C,CIP 1180-79,,>50 µg/mL
CCOC(=O)c1ccc2c(c1)nc(-c1ccc(C(N)=NC(C)C)cc1)n2Cc1ccccc1,ATCC 10231,,50 µg/mL
Cc1nn(C(=O)Nc2ccc(Cl)cc2)c(=O)c2c(C)noc12,ATCC 10231,broth dilution,≥200 µg/mL
O=C(CSc1nnc(-c2ccc3ncccc3c2)o1)Nc1ccc(Cl)cc1,,agar,100 µg/mL
CCOC(=O)c1ccc2nc(-c3ccc(C(N)=NCCc4ccccc4)cc3)[nH]c2c1,ATCC 10231,,50 µg/mL
Clc1ccc(C(Cc2ccc(Br)cc2)Cn2ccnc2)c(Cl)c1,,,10 µg/mL
Cc1ccc(S(=O)(=O)N/N=C2\CC[C@@]3(C)C(C2)C[C@@H](O)C2C3CC[C@]3(C)[C@@H]([C@H](C)CCCC(C)C)CC[C@@H]23)cc1,CIP 1180-79,,>50 µg/mL
NC(=S)c1ccnc(SCc2ccccc2Cl)c1,44859,,>1000 µM
Cc1nc2c(=O)n(-c3ccc(S(=O)(=O)NC(=S)Nc4ccc(Cl)cc4)cc3)nc(C)c2s1,ATCC 10231,broth dilution,12.5 µg/mL
CC(C)CCC[C@@H](C)[C@H]1CC[C@H]2C3C/C(=N\N)[C@H]4C[C@@H](O)CC[C@]4(C)C3CC[C@]12C,CIP 1180-79,,25 µg/mL
COc1ccc(NC(=O)CSc2nnc(-c3ccc4ncccc4c3)o2)cc1,,agar,50 µg/mL
CC(=O)N[C@H]1C(O[C@H]2CC[C@@]3(C)C(CC[C@]4(C)C3CC=C3[C@]5(C)CC(C)(C)CC[C@]5(C(=O)O)CC[C@]34C)C2(C)C)O[C@H](CO[C@@H]2OC[C@H](O)[C@H](O)[C@H]2OC2OC[C@H](O)[C@H](O)[C@H]2O)[C@@H](O)[C@@H]1O,,,12.5 µg/mL
O=C(CSc1nnc(-c2ccc3ncccc3c2)o1)Nc1ccccc1,,agar,100 µg/mL
CC(C)CCC[C@@H](C)[C@H]1CC[C@H]2C3C/C(=N\Nc4ccccc4)C4C[C@@H](O)CC[C@]4(C)C3CC[C@]12C,CIP 1180-79,,12.5 µg/mL
c1ccc(-c2n[nH]c3c2CCCC3)cc1,264/624,,62.5 µg/mL
Cc1ccc(S(=O)(=O)N/N=C2\CC3C(CC[C@]4(C)[C@@H]([C@H](C)CCCC(C)C)CC[C@@H]34)[C@@]3(C)CC[C@H](O)CC23)cc1,CIP 1180-79,,25 µg/mL
CC(C)=CCC/C(C)=C/CC/C(C)=C/Cc1cccc(C(=O)O)c1O,ATCC 10231,,>12.5 µg/mL
Clc1ccc(C(Cc2ccccc2Cl)Cn2ccnc2)cc1,,,100 µg/mL
C[C@@H](c1ncncc1F)[C@](O)(Cn1cncn1)c1ccc(F)cc1F,8649,broth dilution,<0.008 µg/mL
Cc1ccc(S(=O)(=O)N/N=C2C=C3/C(=N/NS(=O)(=O)c4ccc(C)cc4)CC4C(CC[C@]5(C)[C@@H]([C@H](C)CCCC(C)C)CC[C@@H]45)[C@@]3(C)CC/2)cc1,CIP 1663-86,,25 µg/mL
C[C@H]1[C@H](O)[C@@H](C)/C=C/C=C/C=C/C=C/C=C/C=C/C=C/[C@H](O[C@@H]2O[C@H](C)[C@@H](O)[C@H](N)[C@@H]2O)C[C@@H]2O[C@](O)(C[C@@H](O)C[C@@H](O)CC[C@H](O)[C@@H](O)C[C@@H](O)CC(=O)O[C@H]1C)C[C@H](O)[C@H]2C(=O)O,ATCC 10231,broth dilution / absorbance,9.77 µg/mL
COS(=O)(=O)[O-].Cn1c(-c2c[nH]c3ccccc23)c[n+](C)c1-c1cn(C)c2cc(Br)ccc12,,,>50 µg/mL
NC(=S)c1ccnc(SCc2cccc(F)c2)c1,44859,,62.5 µM

For reference, 3 entries again:

| smiles | strain or isolate | method | result |
|---|---|---|---|
| Cc1n[nH]c(=O)c2c(C)noc12 | ATCC 10231 | broth dilution | ≥200 µg/mL |
| CCCCCC(=O)O[C@H]1[C@H](OC(=O)CCCCC)[C@H](OCC23C4C=C(C(C)C)C2(C(=O)O)C(C=O)(C4)[C@@H]2CC[C@@H](C)[C@H]23)O[C@H](C)[C@H]1OC | 1208 |  | 8 µg/mL |
| CC[C@@H]([C@H](C)O)n1ncn(-c2ccc(N3CCN(c4ccc(OC[C@@H]5CO[C@@](Cn6cncn6)(c6ccc(F)cc6F)C5)cc4)CC3)cc2)c1=O | 373 | broth dilution | 0.25 µg/mL |

Rows are shuffled and stem from different studies.